Test results taken from patent US20160361334A1, “APPLICATION OF BAICALIN IN PREPARATION OF DRUG FOR TREATING RICIN POISONING” (published 2016).

Legend:
[1] = system: Hela cells; test: Protective effects of baicalin on Hela cells against ricin cytotoxicity (lactate dehydrogenase release); conditions: 72 h, LDH release; for Survival rate (%): Hela cells, 100 pg ricin per well
[2] = system: yeast-type fungi; conditions: cited from earlier work

## O=C(O)[C@H]1O[C@@H](Oc2cc3oc(-c4ccccc4)cc(=O)c3c(O)c2O)[C@H](O)[C@@H](O)[C@@H]1O
[1]; Baicalin 4 μg/ml
  Survival rate (%): 27.56%
[1]; Baicalin 8 μg/ml
  Survival rate (%): 42.18%
[1]; Baicalin 16 μg/ml
  Survival rate (%): 56.89%
[1]; Baicalin 32 μg/ml
  Survival rate (%): 77.42%
[1]; dose-dependent manner
  Inhibition of cytotoxicity of Hela cells caused by ricin: significantly inhibited the cytotoxicity
[2]
  minimal inhibitory concentration (MIC): 70 to 100 µg/mL
